Molecular target: His6-tagged sCD4 (D1-D2)
Test: BLI
Details: complex

Substance: LT5.J4b12C SOSIP.664 trimeric Env (HIV-1 B/C recombinant, soluble gp140)
- Kd: 19.7 nM
- koff: 0.000254 s⁻¹
